Results of unrelated studies side by side (data: NIAID ChemDB).

Shared fields: whole-cell or culture tests; agent: Mycobacterium avium; endpoint: MIC

Blank or dashed fields: not listed here. Two numbers with a dash give a range or band. Rows are shuffled and stem from different studies.

{"compound": "O=C(Nc1ccc(C(F)(F)F)cc1)c1cc(Br)ccc1OP(=O)(c1ccccc1)c1ccccc1", "strain": "MY330/88", "conditions": "14 d", "result": "16 µM"}
{"compound": "COc1c(N2CCNC(C)C2)c(F)cc2c(=O)c(C(=O)O)cn(C3CC3)c12", "strain": "N-444", "read by": "broth dilution", "result": "2 µg/mL"}
{"compound": "CN(C)c1ccc(-n2c(=O)oc3ccccc3c2=O)cc1", "strain": "MY330/88", "result": ">125 µM"}
{"compound": "CCN1C(C#N)=C(C#N)N=C(c2cccs2)C1/C=C/c1ccc(-c2ccccc2)cc1", "read by": "broth dilution / visual reading", "result": "12.5 µg/mL"}
{"compound": "O=[N+]([O-])c1cn2c(n1)OC[C@@H](OCc1ccc(OC(F)(F)F)cc1)C2", "strain": "ATCC 25291", "result": "3.12 µg/mL"}
{"compound": "Cc1cc(CN2CCOCC2)c(C)n1C1CCCCC1", "strain": "103317", "result": ">64 µg/mL"}
{"compound": "CCN1C(C#N)=C(C#N)N=C(c2ccsc2)[C@H]1/C=C/c1ccccc1", "read by": "broth dilution / visual reading", "result": "12.5 µg/mL"}
{"compound": "O=C(O)c1cn(C2CC2)c2c(F)c(N3CCN4CCC3C4)c(F)cc2c1=O", "strain": "SMT", "result": "2 µg/mL"}
{"compound": "O=c1[nH]c2ccccc2c(=O)n1-c1cccc([N+](=O)[O-])c1", "strain": "MY330/88", "result": ">125 µM"}
{"compound": "CC(C)(O)C1=CC[C@@]2(C)C[C@@H]3O[C@]3(C)CC[C@@H]3O[C@@]3(C)CC[C@H]12", "strain": "ATCC 25291", "result": ">128 µg/mL"}
{"compound": "CO[C@H]1/C=C/O[C@@]2(C)Oc3c(C)c(O)c4c(O)c(c(/C=N/N5CCN(C)CC5)c(O)c4c3C2=O)NC(=O)/C(C)=C\\C=C\\[C@H](C)[C@H](O)[C@@H](C)[C@@H](O)[C@@H](C)[C@H](OC(C)=O)[C@@H]1C", "strain": "5-74", "result": "10 µg/mL"}
{"compound": "NNC(=O)c1ccncc1", "read by": "broth dilution / visual reading", "result": "0.1 µg/mL"}
{"compound": "CC[C@@H](CO)NCCN[C@@H](CC)CO", "strain": "RG4", "result": "32 µg/mL"}
{"compound": "COc1cc(O)cc(/C=C/c2cc3ccccc3s2)c1", "read by": "broth dilution", "result": "16 µg/mL"}
{"compound": "O=C(Nc1ccc(C(F)(F)F)cc1)c1cc(Br)ccc1OP(=O)(Oc1ccccc1)Oc1ccccc1", "strain": "MY330/88", "conditions": "14 d", "result": "8 µM"}
{"compound": "CCOC(=O)N1CCN(c2ccc(C3CC(c4ccc([N+](=O)[O-])o4)=NO3)cc2)CC1", "strain": "ATCC 25291", "result": "100 µg/mL"}
{"compound": "O=c1oc2ccccc2c(=O)n1-c1ccccc1", "strain": "MY330/88", "result": "125 µM"}
{"compound": "[C-]#[N+][C@@]1(C)CC[C@H]2[C@H]3[C@@H](C(=C)CC[C@@H]31)[C@H](C=C(C)C)C[C@@H]2C", "strain": "ATCC 25291", "result": "32 µg/mL"}
{"compound": "O=C(Nc1ccccc1)c1ccccc1OP(=O)(Oc1ccccc1)Oc1ccccc1", "strain": "MY330/88", "conditions": "14 d", "result": "125 µM"}
{"compound": "CCN1CC(c2cccs2)=NC(C#N)=C1C#N", "read by": "broth dilution / visual reading", "result": "12.5 µg/mL"}
{"compound": "O=c1oc2ccccc2c(=O)n1-c1cccc(Cl)c1", "strain": "MY330/88", "result": "31 µM"}
{"compound": "Cc1[nH]c(-c2ccc(Cl)cc2)cc1CN1CCN(C)CC1", "strain": "103317", "result": ">64 µg/mL"}
{"compound": "CO[C@H]1/C=C/O[C@@]2(C)Oc3c(C)c(O)c4c(O)c(c5c(c4c3C2=O)NC2(CCN(CC(C)C)CC2)N=5)=NC(=O)/C(C)=C\\C=C\\[C@H](C)[C@H](O)[C@@H](C)[C@@H](O)[C@@H](C)[C@H](OC(C)=O)[C@@H]1C", "strain": "Isolate 90-0842", "result": ">1 µg/mL"}
{"compound": "CCN1C(C#N)=C(C#N)N=C(c2cccs2)[C@@H]1/C=C/c1ccccc1", "read by": "broth dilution / visual reading", "result": "12.5 µg/mL"}
{"compound": "O=C(Nc1ccc(C(F)(F)F)cc1)c1cc(Cl)ccc1OP(=O)(OCc1ccccc1)OCc1ccccc1", "strain": "MY330/88", "conditions": "14 d", "result": "32 µM"}
{"compound": "Cc1c(CN2CCN(C)CC2)cc(-c2ccc(Cl)cc2)n1C1CCCCC1", "strain": "103317", "result": ">64 µg/mL"}
{"compound": "CC1CN(c2nc3c(cc2F)c(=O)c(C(=O)O)cn3C(C)(C)C)CCN1", "strain": "14 strains", "result": "0.1–12.5 µg/mL"}
{"compound": "CN[C@@H]1[C@H](O[C@H]2[C@H](O[C@H]3[C@H](O)[C@@H](O)[C@H](N=C(N)N)[C@@H](O)[C@@H]3N=C(N)N)O[C@@H](C)[C@]2(O)C=O)O[C@@H](CO)[C@H](O)[C@H]1O", "strain": "1435", "result": "8 µg/mL"}
{"compound": "CC(=O)NCC1CN(c2ccc(C(C)=O)cc2)C(=O)O1", "strain": "1 isolates", "result": ">250 µg/mL"}
{"compound": "C[C@H](CCC(=O)O)[C@H]1CC[C@H]2[C@@H]3CC[C@@H]4C[C@H](O)CC[C@]4(C)[C@H]3C[C@H](O)[C@]12C", "result": ">2000 µM"}
{"compound": "Cc1c(CN2CCN(C)CC2)c(CN2CCN(C)CC2)c(C)n1Cc1ccccc1", "strain": "103317", "result": ">64 µg/mL"}
{"compound": "CC(C)(C)n1cc(C(=O)O)c(=O)c2cc(F)c(N3CCC(N)C3)nc21", "strain": "14 strains", "result": "0.1–12.5 µg/mL"}
{"compound": "CO[C@H]1/C=C/O[C@@]2(C)Oc3c(C)c(O)c4c(O)c(c(/C=N/N5CCN(C)CC5)c(O)c4c3C2=O)NC(=O)/C(C)=C\\C=C\\[C@H](C)[C@H](O)[C@@H](C)[C@@H](O)[C@@H](C)[C@H](OC(C)=O)[C@@H]1C", "strain": "3011-C clarithromycin-resistant", "result": "1 µg/mL"}
{"compound": "CC1CN(c2c(F)cc3c(=O)c(C(=O)O)cn(C4CC4)c3c2Br)CCN1", "strain": "14 strains", "result": "0.1–12.5 µg/mL"}
{"compound": "CC(C)=CCC[C@H](C)CCOCCCCCC(=O)O", "result": "2000 µM"}
{"compound": "CC(C)(C)c1ccc(CNc2ccccc2C2=NCCN2)cc1", "strain": "103317", "result": "4 µg/mL"}
{"compound": "CC[C@H]1OC(=O)[C@H](C)[C@@H](O[C@H]2C[C@@](C)(OC)[C@@H](O)[C@H](C)O2)[C@H](C)[C@@H](O[C@@H]2O[C@H](C)C[C@H](N(C)C)[C@H]2O)[C@](C)(OC)C[C@@H](C)C(=O)[C@H](C)[C@@H](O)[C@]1(C)O", "strain": "3090-C clarithromycin-resistant", "result": "512 µg/mL"}
{"compound": "CC1CN(c2c(F)c(N)c3c(=O)c(C(=O)O)cn(C4CC4)c3c2F)CCN1C", "strain": "LR114F", "result": "0.12 µg/mL"}
{"compound": "O=C(Nc1cccc([N+](=O)[O-])c1)c1ccccc1O", "strain": "MY330/88", "result": ">31 µM"}
{"compound": "CCN1C(C#N)=C(C#N)N=C(c2ccccc2)[C@@H]1/C=C/c1ccccc1", "read by": "broth dilution / visual reading", "result": "12.5 µg/mL"}
{"compound": "N[C@@H]1CN(c2c(F)cc3c(=O)c(C(=O)O)cn([C@@H]4C[C@@H]4F)c3c2Cl)CC12CC2", "strain": "N-444", "read by": "broth dilution", "result": "2 µg/mL"}
{"compound": "CCC1CN(c2c(F)cc3c(=O)c(C(=O)O)cn(C4CC4)c3c2OC)CCN1", "strain": "14 strains", "result": "0.1–12.5 µg/mL"}
{"compound": "O=C(Nc1ccc(Cl)cc1)c1cc(Cl)ccc1OP(=O)(Oc1ccccc1)c1ccccc1", "strain": "MY330/88", "conditions": "14 d", "result": "16 µM"}
{"compound": "CCCCCCCC/C=C\\CCCCCCCC(=O)O", "result": "2000 µM"}
{"compound": "Cc1c(CN2CCSCC2)cc(-c2ccc(F)cc2)n1-c1ccc(Cl)cc1", "strain": "103317", "result": ">16 µg/mL"}
{"compound": "CO[C@H]1/C=C/O[C@@]2(C)Oc3c(C)c(O)c4c(=O)c(c5oc6cc(N7CCN(CC(C)C)CC7)cc(=O)c6nc5c4c3=C2O)NC(=O)/C(C)=C\\C=C\\[C@H](C)[C@H](O)[C@@H](C)[C@@H](O)[C@@H](C)[C@H](OC(C)=O)[C@@H]1C", "strain": "3010", "result": "0.031 µg/mL"}
{"compound": "CCC[C@@H](OC(C)=O)C1=C(Br)/C(=C/Br)OC1=O", "strain": "ATCC 25291", "result": ">128 µg/mL"}
{"compound": "Cc1cc(CN2CCN(C)CC2)c(C)n1Cc1ccccc1", "strain": "103317", "result": ">64 µg/mL"}
{"compound": "O=C(Nc1ccc(C(F)(F)F)cc1)c1cc(Cl)ccc1OP(=O)(c1ccccc1)c1ccccc1", "strain": "MY330/88", "conditions": "7 d", "result": "8 µM"}
{"compound": "CCN1C(C#N)=C(C#N)N=C(c2ccccc2)C1/C=C/c1ccc(-c2ccccc2)cc1", "read by": "broth dilution / visual reading", "result": "12.5 µg/mL"}
{"compound": "Cc1[nH]c(C)c(CN2CCN(C)CC2)c1CN1CCN(C)CC1", "strain": "103317", "result": ">64 µg/mL"}

5 of the rows above, restated:

compound,strain,read by,conditions,result
CN[C@@H]1[C@H](O[C@H]2[C@H](O[C@H]3[C@H](O)[C@@H](O)[C@H](N=C(N)N)[C@@H](O)[C@@H]3N=C(N)N)O[C@@H](C)[C@]2(O)C=O)O[C@@H](CO)[C@H](O)[C@H]1O,1435,,,8 µg/mL
O=C(Nc1ccc(C(F)(F)F)cc1)c1cc(Cl)ccc1OP(=O)(OCc1ccccc1)OCc1ccccc1,MY330/88,,14 d,32 µM
O=C(Nc1ccc(C(F)(F)F)cc1)c1cc(Br)ccc1OP(=O)(c1ccccc1)c1ccccc1,MY330/88,,14 d,16 µM
O=[N+]([O-])c1cn2c(n1)OC[C@@H](OCc1ccc(OC(F)(F)F)cc1)C2,ATCC 25291,,,3.12 µg/mL
CO[C@H]1/C=C/O[C@@]2(C)Oc3c(C)c(O)c4c(O)c(c(/C=N/N5CCN(C)CC5)c(O)c4c3C2=O)NC(=O)/C(C)=C\C=C\[C@H](C)[C@H](O)[C@@H](C)[C@@H](O)[C@@H](C)[C@H](OC(C)=O)[C@@H]1C,5-74,,,10 µg/mL